# According to paper PMC3866925, “Functional characterization of two members of histidine phosphatase superfamily in Mycobacterium tuberculosis” (BMC Microbiology, 2013):
# What was measured:
# Test in all cases: purified protein
# Conditions in all cases: pH 5.8; 37.0 °C
# O=P(O)(O)OCC(O)CO = test system: O=P(O)(O)OCC(O)CO
# C=C(OP(=O)(O)O)C(=O)O = test system: C=C(OP(=O)(O)O)C(=O)O
# [1] = test system: O=[N+]([O-])c1ccc(OP(=O)(O)O)cc1
substance,measurement,setting,value
C-His-Rv2135c (Mycobacterium tuberculosis H37Rv),Km,O=P(O)(O)OCC(O)CO,14.00 ± 0.00 mM
same,Km,C=C(OP(=O)(O)O)C(=O)O,11.25 ± 0.75 mM
same,Km,[1],10.60 ± 0.07 mM
same,kcat/Km,[1],6530 M⁻¹ s⁻¹
